# PubChem BioAssay AID624099, ICCB-Longwood – 2012
# Purpose: 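Knock-downs relieving repression by E2 of an HPV18 LCR luciferase reporter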 (primary screen)
# Cells: human C33A cervical carcinoma cells (HPV-negative) stably expressing BPV1 E2 and an HPV18 LCR luciferase reporter
# Reagent: siRNA pool against human genes, 40 nM
# Duration: 72 h
# Read-out: 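Per-well luciferase luminescence, z-scored on each plate against the plate mean and SD with control wells left out, then averaged across three replicate plates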
# Direction: mean z-score and z-score: higher = stronger reporter signal, weaker E2 silencing
# Rule for the call: 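Mean z ≥ 2 together with z ≥ 2 in two or more of the three replicates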
# The deposit covers about 21,000 reagents; this is a random part of them. 497 of all reagents (2.4%) count as active. 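Higher z means weaker E2 silencing; only reporter increases were scored, and knock-downs that hurt cell survival may mask genuine repressor factors.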 Entries without a mark were called inactive. Reagent sequences are not shown.
Target gene,PubChem SID,mean z-score,"z-score, replicate A","z-score, replicate B","z-score, replicate C"
TSPEAR-AS2 (GeneID 114043),SID134320401,-0.06,0.39,0.06,-0.61
WDR82P1 (GeneID 728505),SID134325803,-1.5,-1.44,-1.34,-1.71
FJX1 (GeneID 24147),SID134316776,0.19,0.01,0.2,0.36
PLLP (GeneID 51090),SID134315312,0.87,0.72,0.89,1
EEF1DP3 (GeneID 196549),SID134320238,1.55,1.74,1.22,1.68
TRPV1 (GeneID 7442),SID134311842,-0.28,-0.29,-0.47,-0.07
GABRA6 (GeneID 2559),SID134311586,-1.35,-1.33,-1.39,-1.34
ROBO3 (GeneID 64221),SID134326565,0.77,0.04,0.98,1.29
RIN3 (GeneID 79890),SID134318647,-0.22,0.14,-0.4,-0.41
SMPD5 (GeneID 392275),SID134327951,0.06,0.02,0,0.16
BCAT2 (GeneID 587),SID134323922,1.33,1.53,1.46,1
P2RY6 (GeneID 5031),SID134310535,-0.17,-0.11,-0.44,0.03
TIGAR (GeneID 57103),SID134324277,0.8,0.74,1.08,0.57
PAQR9 (GeneID 344838),SID134312987,-3.1,-3.13,-3.65,-2.52
AQP4 (GeneID 361),SID134315905,-0.19,-0.07,-0.18,-0.33
SEMA5B (GeneID 54437),SID134325751,0.27,0.26,0.4,0.16
ARL13B (GeneID 200894),SID134321304,-0.22,-0.19,-0.09,-0.37
VCX3A (GeneID 51481),SID134317526,-1.05,-0.47,-1.2,-1.47
RPS6KA2 (GeneID 6196),SID56478836,-1.35,-1.04,-1.54,-1.46
CD2BP2 (GeneID 10421),SID134323801,2.76 (active),2.8,2.63,2.84
DNAAF3 (GeneID 352909),SID134321674,-0.72,-0.38,-0.81,-0.98
MS4A8 (GeneID 83661),SID134313622,-0.13,-0.2,0.05,-0.25
IQCC (GeneID 55721),SID134324806,1.09,1.34,0.46,1.46
ZP4 (GeneID 57829),SID134317345,-0.38,-0.3,-0.36,-0.48
LINC01060 (GeneID 401164),SID134327456,0.46,0.52,0.26,0.61
TPI1P2 (GeneID 286016),SID134329273,-0.31,-0.45,-0.31,-0.17
LMCD1 (GeneID 29995),SID134317787,-0.15,-0.26,-0.47,0.29
HCRTR1 (GeneID 3061),SID134311066,1.33,1.37,1.4,1.24
ENTREP1 (GeneID 9413),SID134325041,-0.37,-0.45,-0.12,-0.55
U2AF1 (GeneID 7307),SID134316604,-0.82,-0.69,-0.88,-0.89
PRPS2 (GeneID 5634),SID56478909,-0.74,-0.91,-0.52,-0.8
HCFC1R1 (GeneID 54985),SID134310582,1.23,1.39,1.51,0.8
LPIN3 (GeneID 64900),SID134329021,-2.57,-2.48,-2.81,-2.43
ABCA16P (GeneID 342293),SID134325418,0.17,0.32,0.07,0.11
ACAD9 (GeneID 28976),SID134313841,0.05,-0.07,0.19,0.02
MFSD2A (GeneID 84879),SID134319066,-1.24,-1.29,-1.14,-1.28
RAB4A (GeneID 5867),SID134313406,0.86,0.47,1.03,1.1

Reformatted: results already given
HCRTR1 (GeneID 3061) [SID134311066]
- mean z-score: 1.33
- z-score, replicate A: 1.37
- z-score, replicate B: 1.4
- z-score, replicate C: 1.24

ENTREP1 (GeneID 9413) [SID134325041]
- mean z-score: -0.37
- z-score, replicate A: -0.45
- z-score, replicate B: -0.12
- z-score, replicate C: -0.55

U2AF1 (GeneID 7307) [SID134316604]
- mean z-score: -0.82
- z-score, replicate A: -0.69
- z-score, replicate B: -0.88
- z-score, replicate C: -0.89

PRPS2 (GeneID 5634) [SID56478909]
- mean z-score: -0.74
- z-score, replicate A: -0.91
- z-score, replicate B: -0.52
- z-score, replicate C: -0.8

HCFC1R1 (GeneID 54985) [SID134310582]
- mean z-score: 1.23
- z-score, replicate A: 1.39
- z-score, replicate B: 1.51
- z-score, replicate C: 0.8

LPIN3 (GeneID 64900) [SID134329021]
- mean z-score: -2.57
- z-score, replicate A: -2.48
- z-score, replicate B: -2.81
- z-score, replicate C: -2.43

ABCA16P (GeneID 342293) [SID134325418]
- mean z-score: 0.17
- z-score, replicate A: 0.32
- z-score, replicate B: 0.07
- z-score, replicate C: 0.11

ACAD9 (GeneID 28976) [SID134313841]
- mean z-score: 0.05
- z-score, replicate A: -0.07
- z-score, replicate B: 0.19
- z-score, replicate C: 0.02

MFSD2A (GeneID 84879) [SID134319066]
- mean z-score: -1.24
- z-score, replicate A: -1.29
- z-score, replicate B: -1.14
- z-score, replicate C: -1.28

Continued.
Target gene,PubChem SID,mean z-score,"z-score, replicate A","z-score, replicate B","z-score, replicate C"
OR1C1 (GeneID 26188),SID134325132,0.29,0.55,-0.22,0.55
ID2 (GeneID 3398),SID134314563,0.16,0.13,0.07,0.28
LINC02764 (GeneID 387810),SID134328233,-1.31,-1.34,-1.5,-1.1
RHOD (GeneID 29984),SID134313781,0.2,0.21,0.2,0.17
LOC388852 (retired record) (GeneID 388852),SID134329082,-0.01,-0.1,0.01,0.05
ANKRD62 (GeneID 342850),SID134325680,0.01,-0.44,0.43,0.03
CASP2 (GeneID 835),SID134309912,-1.17,-0.87,-1.32,-1.32
LOC729915 (retired record) (GeneID 729915),SID134327569,1.34,1.46,1.37,1.19
UGCG (GeneID 7357),SID134311786,0.11,0.14,0.04,0.16
FANCD2OS (GeneID 115795),SID134322229,-1.26,-0.9,-1.47,-1.41
FER1L5 (GeneID 90342),SID134325524,-0.77,-0.92,-0.7,-0.68
GOLT1A (GeneID 127845),SID134326808,-0.06,-0.28,0.24,-0.14
NSMCE3 (GeneID 56160),SID134321176,0.85,1.12,0.91,0.51
ERLIN1 (GeneID 10613),SID134319669,-1.02,-1.09,-0.88,-1.07
ABCB11 (GeneID 8647),SID134312349,0.17,0.56,0.06,-0.11
MYORG (GeneID 57462),SID134326448,0.96,1.1,0.61,1.17
GPR27 (GeneID 2850),SID134311004,-1.49,-1.33,-1.4,-1.75
DNAJB11 (GeneID 51726),SID134319880,0.15,0.3,0.14,-0.01
FDPS (GeneID 2224),SID134313494,1.1,0.93,1.35,1.01
MGAT3 (GeneID 4248),SID134314843,0.03,0.17,0.15,-0.23
SCNN1B (GeneID 6338),SID134311829,-0.3,-0.55,-0.07,-0.27
CA7 (GeneID 766),SID134313664,-0.92,-0.85,-1.17,-0.75
RBM15 (GeneID 64783),SID134315270,0.05,-0.3,0.44,0.01
PRKAR1B (GeneID 5575),SID134328766,1.02,1.28,0.78,1.01
CCDC18 (GeneID 343099),SID134325126,0.65,0.81,0.48,0.66
C11orf96 (GeneID 387763),SID134328315,-0.19,0.11,-0.4,-0.28
NLRP7 (GeneID 199713),SID134320864,-1.44,-1.52,-1.63,-1.16
AKAP19 (GeneID 84281),SID134318941,1.34,1.5,1.16,1.37
AMN1 (GeneID 196394),SID134326723,0.69,0.81,0.9,0.35
PREP (GeneID 5550),SID134311429,0.74,1.09,0.48,0.65
FBXO24 (GeneID 26261),SID134316702,0.48,0.43,0.44,0.58
LOC283166 (retired record) (GeneID 283166),SID134326582,0.38,-0.26,0.41,1
LOC392584 (retired record) (GeneID 392584),SID134329217,-1.71,-2.28,-1.17,-1.67
SUPT7L (GeneID 9913),SID134324814,-0.16,-0.26,0.09,-0.31
HEATR6 (GeneID 63897),SID134319937,0.17,0.22,0.15,0.14
DIO1 (GeneID 1733),SID134315528,0.38,0.41,0.63,0.09
